For at least one entry, the source does not settle the construct or the ends of the probe. The comparison behind a weaker result is the experiment's own reference, which may not be listed here.
Columns and labels:
[1] = biological target: SaBPL-D200E (Staphylococcus aureus Mu50) (UniProt A0A0H3JRH8); test: EMSA; settings: EMSA adapted from cited protocols, pH and temperature not given, BASA or biotin at 100 uM with 2.5% DMSO in the Fig S7 assays, recombinant protein
[2] = biological target: SaBPL (biotin protein ligase, BirA) wild type (Staphylococcus aureus Mu50) (UniProt A0A0H3JRH8); test: EMSA; settings: apo, unbound probe remains at 625 nM; EMSA adapted from cited protocols; pH and temperature not given; BASA or biotin at 100 uM with 2.5% DMSO in the Fig S7 assays; recombinant protein
[3] = apo, unbound probe remains at 625 nM

Measured: binding result

CCTTAAATGTAAACTTTTATAATTAATAAGTTTACATTTAAG / CCTTAAATGTAAACTTATTAATTATAAAAGTTTACATTTAAGG [bioO]
binds more weakly: [1]; [3] | [1]; holo: biotin + MgATP (biotinyl-5'-AMP), 156 nM needed to bind all probe (about 3-fold more than wild type) | [2]

AACTTATTGTAAACTTTTCATTTCTTAAAGTTTACAATGGTGCT (double strand) [bioY]
binds more weakly: [1]; [3] | [1]; holo: biotin + MgATP (biotinyl-5'-AMP), incomplete binding at 156 nM, highest tested | [2]
